Results on three compounds are retold here after US6699989B1, “Antiviral and antimicrobial guanidine or biguanidine derivatives” (priority 2000, dated 2004).

The subject of data set [1] is HIV-1. The data set can be described thus: PBMC assay, virus production by reverse transcriptase activity. It counts as cell-based. The following applies: ROJO in PBMC, TC50/IC50. From the text: Method 2: PBMC Assay Method (Peripheral Blood Mononuclear cell)—Description
This assay addresses the issue of providing a rationale for further evaluation of the compound by providing evidence of in vitro anti-HIV activity against a low passage clinical strain of HIV-1. These fresh human peripheral blood mononuclear cell assays use fresh human cells obtained from the American Red Cross from uninfected, normal human donors. Mononuclear cells from these blood samples are isolated by centrifugation and infected with low passage clinical strains of HIV-1 which have been obtained by culture of blood cells from HIV-infected patients with uninfected PBMCs. Since the PBMCs are not killed by HIV infection, endpoint quantification is performed by measurement of virus production in each well by reverse transcriptase assay or p24 ELISA. These assays provide evidence that the test compounds will have efficacy against viruses, which will likely be encountered in patients without genetic changes, introduced by passage in cell culture.
Thus, PBMCs assay measures the amount of virus released from the infected cells into the tissue culture supernatant. The activity of the test compound is measured by its ability to reduce the level of virus production relative to the virus controls (cells+virus with no added compound). In PBMC culture we use reverse transcriptase activity in the supernatant to quantify the amount of virus production from the infected cells. Endpoint quantification is performed at 6 days post-infection.
Fresh human peripheral blood lymphocytes (PBL) are isolated from voluntary Red Cross donors, seronegative for HIV and HBV. […]
In the standard PBL assay (MOI: 0.2), the assay was ended on day 7 following collection of cell free supernatant samples for reverse transcriptase activity assay. In the low MOI PBL assay (MOI: 0.02), supernatant samples were collected on day 6, day 11, and day 14 post-infection and analyzed for RT activity.

Data set [2] has as its system HIV-1. To be noted: for ANTIVIRAL INDEX (AI) 25% / ANTIVIRAL INDEX (AI) 50% / ANTIVIRAL INDEX (AI) 95% / SI: CEM-SS, HIV1 RF; for SI: XTT assay. In general terms: Tetrazolium dyes change colour on reduction, which living cells bring about.

A value given as a limit tells only on which side of the number the result lay.

Consider `Cc1cn([C@H]2C[C@H](N=[N+]=[N-])[C@@H](CO)O2)c(=O)[nH]c1=O` [AZT, reference compound], for which the TI entry in the data set with HIV-1 [1] is given as “TI = >40.0”.

Consider `N=C(NCCCCCCNC(=N)NC(=N)N1CCN(c2cc3c(cc2F)c(=O)c(C(=O)O)cn3C2CC2)CC1)NC(=N)N1CCN(c2cc3c(cc2F)c(=O)c(C(=O)O)cn3C2CC2)CC1` [BVS-10A], for which the TI result with HIV-1 [1] is reported as “approximately 50”. The TI entry with HIV-1 [1] (listed as BVS 10A) was “TI = >39.4”. This compound returned a therapeutic index in the data set on HIV-1 [2] (CEM-SS cells, TC50/IC50) greater than 10. Further, in the data set with HIV-1 [2], the “ANTIVIRAL INDEX (AI) 25%” value was greater than 8.33, the “ANTIVIRAL INDEX (AI) 50%” value is given as greater than 6.01, the “ANTIVIRAL INDEX (AI) 95%” value is recorded as greater than 3.34 and the SI entry is reported as “SI: >6.01”.

On to `Nc1ccn([C@H]2CC[C@@H](CO)O2)c(=O)n1` [DDC, di-deoxycytosine, reference compound], for which, in the data set on HIV-1 [2], the “ANTIVIRAL INDEX (AI) 25%” value is on record as greater than 754.29, the “ANTIVIRAL INDEX (AI) 50%” value is reported as greater than 485.51, the “ANTIVIRAL INDEX (AI) 95%” value is given as greater than 4.73 and the SI entry is “SI: >485.51”.
